Experimental data published in patent US6358701B1, “DNA molecules encoding Ctenocephalides felis glutamate gated chloride channels” (Merck & Co., Inc., priority 1997, dated 2002).

Tested on: CfGluCl-1 (C. felis GluCl channel)
Assay: Two microelectrode voltage clamp of Xenopus oocytes expressing CfGluCl-1
Type: cell-based, Ctenocephalides felis
Settings: experiment of FIG. 5B
Protocol: The full-length cDNA encoding CfGluCl-1 in plasmid vector pBluescript (Stratagene, LaJolla, Calif.) is linearized and capped cRNA transcripts are synthesized using appropriate oligonucleotide primers and the mMESSAGE mMACHINE in vitro RNA transcription kit (Ambion). Xenopus laevis oocytes were prepared and injected using standard methods as described (Arena et al., 1991, Mol. Pharmacol. 40: 368-374; Arena et al, 1992, Mol. Brain Res. 15: 339-348). Adult female Xenopus laevis were anesthetized with 0.17% tricaine methanesulfonate and the ovaries were surgically removed and placed in a dish consisting of (mM): NaCl 82.5, KCl 2, MgCl2 1, CaCl2 1.8, HEPES 5 adjusted to pH 7.5 with NaOH (OR-2). Ovarian lobes were broken open, rinsed several times, and gently shaken in OR-2 containing 0.2% collagenase (Sigma, Type IA) for 2-5 hours. When approximately 50% of the follicular layers were removed, Stage V and VI oocytes were selected and placed in media consisting of (mM): NaCl 86, KCl 2, MgCl2 1, CaCl2 1.8, HEPES 5, Na pyruvate 2.5, theophylline 0.5, gentamicin 0.1 adjusted to pH 7.5 with NaOH (ND-96) for […] before injection. For most experiments, oocytes were injected with 10 ng of cRNA in 50 nl of RNase free water. Control oocytes were injected with 50 nl of water. […]
Each curve represents the difference between the current measured with and without 10 μM glutamate. […]

SMILES: N[C@@H](CCC(=O)O)C(=O)O [glutamate]
- n (exponent of the concentration-response fit): 2.13
